In PubChem BioAssay AID720641 (ICCB-Longwood Screening Facility, Harvard Medical School, 2013):
This is a selection; strong and weak results do not stand in their true shares. The source made the active and inactive calls.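 Rule for the calls: active = relative growth at most 50% at the other temperature and 20+ points below 30 °C, or under 10% at both; inactive = the rest, inconclusive results apart.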

Experiment: Staphylococcus aureus RN4220 growth blockers – two temperatures, LtaS inhibitor project, primary screen (AID 720641)
Settings: S. aureus RN4220 growth, OD600, 20 h, 42 °C; hits give low values

SMILES | relative growth
CN(C)C1(CNC(=O)c2ccc(C(C)(C)C)cc2)CCCCC1 | inactive: 95.2%
CC1CN(Cc2ccccc2)CCC1=O (configuration not stated) | inactive: 107%
CCN1CCC(Nc2ccc(F)cc2)CC1 | inactive: 99.9%
CC1CN(C)C(C)CC1Nc1ccccc1 (configuration not stated) | inactive: 109%
Cc1ccccc1C(=O)NCC1(N(C)C)CCCCC1 | inactive: 103%
CC1CN(CCc2ccccc2)C(C)CC1=O (configuration not stated) | inactive: 106%
CN(C)c1ccc(C(=O)NCC2(N3CCCCC3)CCCCC2)cc1 | inactive: 93.3%
CC(C)(C)c1ccc(C(=O)NCC2(N3CCOCC3)CCCCC2)cc1 | inactive: 102%
CCOc1ncccc1C(=O)NCC1(N(C)C)CCCCC1 | inactive: 105%
COc1cc(C(=O)NCC2(N3CCOCC3)CCCCC2)cc(OC)c1OC | inactive: 105%
O=C(NCC1(N2CCCCC2)CCCCC1)c1n[nH]c2ccccc12 | inactive: 93.3%
CCOc1ncccc1C(=O)NCC1(N2CCCCC2)CCCCC1 | inactive: 77.5%
NC(=O)C1(Nc2ccccc2)CCN(Cc2ccccc2)CC1 | inactive: 86.7%
O=C1CCN(CCc2ccccc2)CC1 | inactive: 89%
CN1CCC(Nc2ccc(F)cc2)CC1 | inactive: 85.8%
O=C(NCC1(N2CCOCC2)CCCCC1)c1ccccc1[N+](=O)[O-] | inactive: 106%
O=C(NCC1(N2CCOCC2)CCCCC1)c1ccc([N+](=O)[O-])cc1 | inactive: 118%
O=C(NCC1(N2CCOCC2)CCCCC1)c1cc2ccccc2cc1O | inactive: 109%
O=C(NCC1(N2CCOCC2)CCCCC1)c1ccccc1 | inactive: 103%
CCCN1CCC(Nc2cc(OC)cc(OC)c2)CC1 | inactive: 89.6%
Cc1c(C(=O)NCC2(N3CCOCC3)CCCCC2)oc2c(Cl)cccc12 | inactive: 91.4%

SMILES | relative growth
Cn1nc(C(=O)NCC2(N3CCCCC3)CCCCC2)c2ccccc2c1=O | inactive: 88%
CC(C)(C)OC(=O)N1CCC(Nc2ccc(OC(F)(F)F)cc2)CC1 | inactive: 103%
CCOc1ccc(C(=O)NCC2(N3CCOCC3)CCCCC2)cc1 | inactive: 111%
CCCOc1cccc(C(=O)NCC2(N3CCOCC3)CCCCC2)c1 | inactive: 96.7%
FC(F)(F)Oc1ccc(NC2CCNCC2)cc1 | inactive: 116%
NC(=O)C1(Nc2ccc(F)cc2)CCNCC1 | inactive: 94.3%
c1ccc(CN2CCC(Nc3ccc4c(c3)OCO4)CC2)cc1 | inactive: 83.8%
O=C(NCC1(N2CCOCC2)CCCCC1)c1ccccc1Br | inactive: 107%
Cc1ccc(C(=O)NCC2(N(C)C)CCCCC2)o1 | inactive: 96.8%
CCCCOc1ccccc1C(=O)NCC1(N2CCOCC2)CCCCC1 | inactive: 100%
CCCN1CCC(Nc2ccc(OC)c(OC)c2)CC1 | inactive: 78.8%
COc1ccc(C(=O)NCC2(N3CCCCC3)CCCCC2)cc1 | inactive: 88.3%
Cc1ccccc1NC1CC(C)(C)NC(C)(C)C1 | inactive: 92.2%
CC1CN(CCc2ccccc2)CCC1=O (configuration not stated) | inactive: 87.6%
N#CC1(Nc2ccccc2)CCN(Cc2ccccc2)CC1 | inactive: 98.4%
O=C1CCN(Cc2ccccc2)CC1 | inactive: 102%
O=C(NCC1(N2CCOCC2)CCCCC1)c1ccc2nc[nH]c2c1 | inactive: 102%
O=C(NCC1(N2CCOCC2)CCCCC1)c1ccc(Cl)cc1 | inactive: 91.6%
COc1ccccc1C(=O)NCC1(N2CCOCC2)CCCCC1 | inactive: 113%
CCOC(=O)N1CCC(Nc2ccc(F)cc2)CC1 | inactive: 108%
CCOC(=O)N1CCC(Nc2cccc(C)c2)CC1 | inactive: 98.4%
